Assay results: PMC12207370, “Macrocyclic Peptide Probes for Immunomodulatory Protein CD59: Potent Modulators of Bacterial Toxin Activity and Antibody‐Dependent Cytotoxicity” (Angewandte Chemie (International Ed. in English), 2025)

Test system: SK-BR-3 cells
Test: ILY lysis assay (Sytox green, IncuCyte) in SK-BR-3 cells
Format: cell-based, human
Experimental: Figure 5 CP‐06 and optimized analogues control CD59 activity in cellular assays. a) ILY lysis assay. SK‐BR‐3 cells were treated with CP‐06 (n = 4) or CP‐06[W3A] (n = 2), then with Sytox green dye and ILY ([…]). The plate was imaged immediately with the IncuCyte S3 Live Cell Analysis System and then every hour up to 14 h. The linear phase of lysis was taken from each well, and linear regression was performed to extract individual slope values, which were then normalized to maximum lysis rate (Sytox and ILY) vs. 0% lysis (Sytox only) within each plate. […] Human erythrocytes were sensitized with 1% w/v anti‐human erythrocyte Ab with 5% v/v human serum in the presence of a serial dilution of CP‐06C18 (black bars) or CP‐06scrmb‐C18 (red bars) Percent lysis enhancement was calculated by normalization to 0% enhancement (buffer well) and plotted as the mean of three biological replicates ± SEM.
Determination of optimal ILY concentration: 20,000 SK-BR-3 cells were seeded in a 96-well plate (Grenier, 655180) 24 h before treatment. […] Any bubbles were removed by a de-bubbler and the plate was immediately transferred to IncuCyte® S3 Live Cell Analysis System where each well was imaged 4 times at 10 × magnification with phase contrast and green fluorescence (λex 440–480 nm, λem = 504–544 nm) every hour for 24 h. […]

SMILES | fold enhancement of IC50 compared to CP-06
CCCCCCCCCCCCCCCCCOCCOCCOCCOCCOCCOCCOCCOCCOCCOCCOCCOCCOCCC(=O)NCCCC[C@H](NC(=O)CNC(=O)[C@@H]1CSCC(=O)N[C@H](Cc2ccc(O)cc2)C(=O)N[C@@H](CO)C(=O)N[C@@H](Cc2c[nH]c3ccccc23)C(=O)N[C@@H]([C@@H](C)O)C(=O)N[C@@H](Cc2c[nH]c3ccccc23)C(=O)NCC(=O)N[C@@H](CC(N)=O)C(=O)N[C@@H](CCCNC(=N)N)C(=O)N[C@@H](CO)C(=O)N[C@@H](CO)C(=O)N[C@@H](C(C)C)C(=O)N[C@@H](CCCNC(=N)N)C(=O)NCC(=O)N1)C(=O)NCC(N)=O [CP-06C18] ({CH2CO}-[dY]SWTWGNRSSVRGCGK(X1)G-NH2; thioether N-14) | 250 fold
CC(C)[C@@H]1NC(=O)[C@H](CO)NC(=O)[C@H](CO)NC(=O)[C@H](CCCNC(=N)N)NC(=O)[C@H](CC(N)=O)NC(=O)CNC(=O)[C@H](Cc2c[nH]c3ccccc23)NC(=O)[C@H]([C@@H](C)O)NC(=O)[C@H](Cc2c[nH]c3ccccc23)NC(=O)[C@H](CO)NC(=O)[C@@H](Cc2ccc(O)cc2)NC(=O)CSC[C@@H](C(=O)NCC(=O)N[C@@H](CCCCNC(=O)CCOCCOCCOCCOCCOCCC(=O)NCCCC[C@H](NC(=O)CNC(=O)[C@@H]2CSCC(=O)N[C@H](Cc3ccc(O)cc3)C(=O)N[C@@H](CO)C(=O)N[C@@H](Cc3c[nH]c4ccccc34)C(=O)N[C@@H]([C@@H](C)O)C(=O)N[C@@H](Cc3c[nH]c4ccccc34)C(=O)NCC(=O)N[C@@H](CC(N)=O)C(=O)N[C@@H](CCCNC(=N)N)C(=O)N[C@@H](CO)C(=O)N[C@@H](CO)C(=O)N[C@@H](C(C)C)C(=O)N[C@@H](CCCNC(=N)N)C(=O)NCC(=O)N2)C(=O)NCC(N)=O)C(=O)NCC(N)=O)NC(=O)CNC(=O)[C@H](CCCNC(=N)N)NC1=O [CP-06dimer] (I: {CH2CO}-[dY]SWTWGNRSSVRGCGKG-NH2 / II: {CH2CO}-[dY]SWTWGNRSSVRGCGKG-NH2; linker I:16-II:16 via CO(CH2CH2O)5CH2CH2CO; thioether I:N-I:14, II:N-II:14) | 3 fold

Numbered stars: 1 amine (or outer) side, 2 acyl side, 3 side chain; on linkers, the order of the positions; unused ones are H or OH. Bridge positions count the residues as written; N and C are the ends. Square brackets hold non-standard residues; d marks the D form. Peptide text beside a SMILES is read from it. I, II: the chains in the order shown. * marks the point of attachment. X1 = CCCCCCCCCCCCCCCCCOCCOCCOCCOCCOCCOCCOCCOCCOCCOCCOCCOCCOCCC(=O)*; CO(CH2CH2O)5CH2CH2CO = O=C(CCOCCOCCOCCOCCOCCC(=O)[*:2])[*:1]
